Measured values as given in PubChem BioAssay AID588727 (Southern Research Specialized Biocontainment Screening …, 2011).
The list shows a part of the results. Results with a measured potency or affinity are listed apart. Activity calls are given as the source filed them. The rule behind the calls is not given here.

test: inhibitors of VEEV TC-83 cytopathic effect, confirmation, Vero cells (AID 588727); settings: VEEV TC-83 cytopathic effect inhibition, at 20 µM; hits give high values

Compound | inhibition
O=C(Nc1cc([As](=O)(O)O)ccc1O)c1ccccc1 | inactive: 1.22%
O=P1(N(CCCl)CCCl)OCCCS1 (centres undefined) | inactive: 1.16%
CCN(N=Nc1nonc1N)c1nonc1N | inactive: 1.02%
Nc1cccc2ccc([As](=O)(O)O)cc12 | inactive: 2.15%
Cc1ccc(NP(=O)(Oc2ccccc2F)Oc2ccccc2F)nc1 | inactive
CN(C(=O)Cc1ccc(Cl)c(Cl)c1)[C@H]1CCCC[C@@H]1N1CCCC1 | inactive: 0.29%
Cc1cc(SC(NC(=O)c2ccc(F)cc2)C(Cl)(Cl)Cl)ncn1 (centres undefined) | inactive: 1.78%
CCOP(=O)(Nc1ccccc1)OCC | inactive: 4.14%
CCCC1OP(N)(=O)OCC1CC (centres undefined) | inactive
CC(=O)Nc1ccc([As](=O)(O)O)cc1 | inactive: 0.19%
O=C(O)c1ccccc1[As](=O)(O)O | inactive
O=P(Nc1nc2ccc(Cl)cc2s1)(c1ccccc1)c1ccccc1 | inactive: 0.97%
CN(C)P(=O)(N(C)C)n1c(Nc2ccccc2)nnc1-c1ccccc1 | inactive: 8.1%
Nc1cc(N)c2nonc2c1[N+](=O)[O-] | inactive: 0.84%
CC(C)CC(=O)NC(Sc1ccc(Cl)cc1)C(Cl)(Cl)Cl (centres undefined) | inactive
O=C(NC(Sc1ccncn1)C(Cl)(Cl)Cl)c1ccccc1 (centres undefined) | inactive: 1.96%
Oc1ccccc1CNc1ccccn1 | inactive: 0.39%
Cc1ccc(OP(=O)(Nc2nccs2)Oc2ccc(C)cc2)cc1 | inactive: 3.69%
COc1ccccc1OP(=O)(Nc1ccc(C)cn1)Oc1ccccc1OC | inactive: 1.65%
CN1CCCC(OC(=O)C(c2ccccc2)c2ccccc2)C1 (centres undefined) | inactive
Clc1ccc(Cl)c(NC2=NCC(CBr)S2)c1 (centres undefined) | inactive: 2.26%
NC(=O)c1cc([N+](=O)[O-])cc([N+](=O)[O-])c1N | inactive: 1.27%

Compound | inhibition
Cc1ccc(N/C(=N/P(=O)(N2CCOCC2)N2CCOCC2)N2CCOCC2)cc1 | inactive
CN(C(=O)Cc1ccc(Cl)c(Cl)c1)[C@H]1CCCC[C@H]1N1CCCC1 | inactive: 0.16%
CC(=O)Nc1ccc(Oc2c([N+](=O)[O-])cc([N+](=O)[O-])cc2[N+](=O)[O-])cc1 | inactive: 2.53%
CC(=O)Nc1ccc([As](=O)(O)O)c(O)c1 | inactive: 0.18%
COC(=O)C1(C)COP(=O)(NCc2ccccc2)OC1 (centres undefined) | inactive
CC(=O)c1ccc(N2CC2c2ccncc2)cc1 (centres undefined) | inactive: 1.43%
N#C/C(=C\c1ccc(N(CCBr)CCBr)cc1)C(N)=O | inactive: 6.31%
C[C@H]1OP(=O)(Oc2ccccc2)C[C@@H]2O[C@@H]21 (some centres undefined) | inactive: 2.09%
C[C@@H]1C=CCP(=O)(Oc2ccccc2)O1 (some centres undefined) | inactive: 2.02%
Cc1ccccc1CN(C)C(=O)COC(=O)C(O)(c1ccccc1)c1ccccc1 | inactive: 0.52%
CCc1cc(O)c([N+](=O)[O-])c(C)c1[N+](=O)[O-] | inactive: 2.45%
CC(C)(C)C(=O)NC(Sc1ccccc1)C(Cl)(Cl)Cl (centres undefined) | inactive: 1.66%
CCOc1ccc(C2=NCC(CBr)S2)cc1 (centres undefined) | inactive: 8.01%
O=P1(Nc2nc3ccc(Cl)cc3s2)COc2ccccc2O1 (centres undefined) | inactive: 5.69%
O=c1c2cc([N+](=O)[O-])ccc2[nH]c2c([N+](=O)[O-])cc([N+](=O)[O-])cc12 | inactive
CN(C)C(=O)Oc1noc2ccccc12 | inactive: 0.18%
CC(NC(=O)COC(=O)C(O)(c1ccccc1)c1ccccc1)c1ccccc1 (centres undefined) | inactive: 2.77%
Cc1ccccc1OP(=O)(Nc1ccccn1)Oc1ccccc1C | inactive: 8.56%
Cc1ccc(OP(=O)(Nc2ccccn2)Oc2ccc(C)cc2)cc1 | inactive: 3.53%
CC(=O)NC(SC(=S)N(CC(C)C)CC(C)C)C(Cl)(Cl)Cl (centres undefined) | inactive: 4.23%
COC(=O)c1cc2c(s1)N=C(c1ccccc1)N(C)P2(=O)N1CCOCC1 (centres undefined) | inactive: 4.71%
CCC(=O)N1C2C3N(C(=O)CC)C1C1N(C(=O)CC)C(C(N1C(=O)CC)N3C(=O)CC)N2C(=O)CC | inactive: 1.66%

Compound | inhibition
O=C(OC1CN2CCC1CC2)c1ccccc1 (centres undefined) | inactive: 0.16%
O=P1(N(CCCl)CCCl)OCCC2CCCCN21 (centres undefined) | inactive
CCNC(=S)/N=C(\N)N[N+](=O)[O-] | inactive: 0.83%
O=C(NC1CCS(=O)(=O)C1)NP(=S)(Oc1ccccc1)Oc1ccccc1 (centres undefined) | inactive: 1.92%
Cc1ccc(NP(=O)(Oc2cccc(C)c2)Oc2cccc(C)c2)nc1 | inactive: 1.33%
c1ccc(-c2nn[nH]n2)c(-c2nn[nH]n2)c1 | inactive
C(Cc1nn[nH]n1)Cc1nn[nH]n1 | inactive
Nc1ccc([As](=O)(O)c2ccc([N+](=O)[O-])cc2)cc1 | inactive: 0.48%
O=C(OC1CN2CCC1CC2)c1cccc(Cl)c1 (centres undefined) | inactive: 0.58%
O=[N+]([O-])c1ccc(O)c(/C=N/Nc2ccc([N+](=O)[O-])cc2[N+](=O)[O-])c1 | inactive
CC(=O)NC(SC(=S)N(C)C)C(Cl)(Cl)Cl (centres undefined) | inactive: 2.18%
O=[As](O)(c1ccccc1)c1ccc(O)cc1 | inactive
C[C@H]1OP(=O)(Oc2ccccc2)[C@H](O)[C@H](O)[C@H]1N=[N+]=[N-] (some centres undefined) | inactive: 1.18%
O=P(Nc1nc2ccccc2s1)(c1ccccc1)c1ccccc1 | inactive: 1.66%
COc1ccc(N)c([N+](=O)[O-])c1[N+](=O)[O-] | inactive: 2.37%
O=P(Nc1ccccn1)(c1ccc(Br)cc1)c1ccc(Br)cc1 | inactive: 0.69%
CN(C)C1(CNC(=O)c2ccc(Cl)c(S(N)(=O)=O)c2)CCCCC1 | inactive: 1.98%
c1nnnn1CCn1cnnn1 | inactive
CC(C)C(=O)NC(Sc1ccccc1)C(Cl)(Cl)Cl (centres undefined) | inactive
O=P(Nc1nccs1)(c1ccccc1)c1ccccc1 | inactive: 0.05%
